Experimental data as given in article PMC8561388 (mBio, 2021).
Read-outs that look alike come from different tables or passages of the source.

Experiments:
[1] = test system: wild-type A75/17-CDV (A75^neon/nLucP); assay type: cell-based, canine distemper virus
[2] = test system: attenuated OP-CDV strain (OP^neon/nLucP); assay type: cell-based, canine distemper virus; settings: for SI: CC50/IC50, CDV (OP)
Vero and P114 cell lines = assay: Click chemistry intracellular localization; assay type: cell-based, monkey, canine; settings: 2 μM, 3 h, Vero and P114 cells

CC1(C)Cc2cccc(OCC(=O)Nc3nc4ccccc4s3)c2O1 [compound 1]
ratio of cell-cycle-affecting concentration to IC50 (Vero-cSLAM cells): about 60 times | SI [1]: 74

CN(C(=O)COc1cccc2c1OC(C)(C)C2)c1nc2c(s1)CCCC2 [compound 2]
improvement of inhibitory activity versus compound 1 [2]: about 100 times | SI ([2]; MDCK): 1,300 | SI ([2]; P114): 3,400 | SI ([2]; Vero): 17,000 | SI ([2]; Vero-cSLAM): 20,000 | ratio of cell-cycle-affecting concentration to IC50 (Vero-cSLAM cells): about 200 times | SI ([1]; CC50/IC50, CDV (A75), Vero-cSLAM): 17,000

N#Cc1cccc(NC(=O)Cc2ccccc2)c1 [compound 3, reference compound]
SI ([2]; Vero-cSLAM): ~16

C#CCCCN(C(=O)COc1cccc2c1OC(C)(C)C2)c1nc2ccccc2s1 [compound 23]
intracellular localization (click reaction with azide-linked Alexa Fluor 488) (Vero and P114 cell lines): intracellular localization
